Measured values from several laboratories, pooled; numbers as filed in NIAID ChemDB.

All rows: host cell toxicity; cells: MT-4; endpoint: CC50

CCn: concentration that lowers growth or viability of the cells by n%. Neighbouring rows are from separate reports. Blank or dashed fields: not listed here.

compound	read by	result
CC1=CC[C@H](C(=O)N(c2cc(C#CC(C)(C)C)sc2C(=O)O)C2CCC(O)(CO[C@H]3CCOC3)CC2)CC1	luminescence	42.8 µM
O=C1O[C@H]2[C@@H]3OC(=O)c4cc(O)c(O)c(O)c4-c4c(cc(O)c(O)c4O)C(=O)OC[C@H]2O[C@@H](OC(=O)c2cc(O)c(O)c(O)c2)[C@@H]3OC(=O)c2cc(O)c(O)c3c2[C@@H]2C1=CC(=O)[C@](O)(O3)C2(O)O	XTT	14.2 µM
C/C(Cn1cnc2c(N)ncnc21)=N\OCP(=O)(O)O	absorbance	>1000 µM
Nc1ccn([C@@H]2OC[C@H](OCP(=O)(O)O)[C@H]2O)c(=O)n1	tetrazolium	>308 µM
Cc1cc(C#N)cc(C)c1Oc1nc(Nc2ccc(C#N)cc2)nc(N)c1Br	MTT / absorbance	2.46 µM
Nc1ncnc2c1ncn2[C@H]1C[C@@H](OCP(=O)(O)O)CO1	tetrazolium	>316 µM
CS(=O)(=O)c1ccc(OP(=O)(OC[C@@H]2C=C[C@H](n3ccc(=O)[nH]c3=O)O2)OC[C@@H]2C=C[C@H](n3ccc(=O)[nH]c3=O)O2)cc1	trypan blue	>250 µM
Nc1ncnc2c1ncn2CCOCP(=O)(O)O	absorbance	>227 µM
Cc1c(CC23CC4CC(CC(C4)C2)C3)nc(SCC(=O)Nc2ccccc2)[nH]c1=O	MTT / absorbance	>295 µM
CC(=O)Oc1ccc(/C=C/C(=O)O[C@@H](C(=O)O)[C@@H](OC(=O)/C=C/c2ccc(OC(C)=O)c(OC(C)=O)c2)C(=O)O)cc1OC(C)=O	XTT	45 µM
C=C(C)[C@H]1[C@@H]2OC3(/C=C/C=C/CCCCC)O[C@@H]2[C@@H]2[C@@H]4O[C@]4(CO)[C@@H](O)[C@]4(O)C(=O)C(C)=C[C@H]4[C@@]2(O3)[C@@H]1C	luminescence	0.03 µM
COc1ccc(N(C)C(=O)[C@@H]2Cc3cccc(c3)C/C=C\c3[nH]c4ccc(F)cc4c3CC(=O)N2)cc1	ATP / luminescence	>44.3 µM
COc1c2c(cc3c1CCC(C)(C)O3)OC[C@@H](c1ccc(O)c(CC=C(C)C)c1O)C2	-	>10 µg/mL
Nc1ncnc2c1ncn2CCOCP(=O)(O)O	tetrazolium	246 µM
C=C(C)[C@]12C[C@@H](COC(=O)c3ccccc3)[C@@]34OC5(O[C@@H]1[C@@H]3[C@@H]1O[C@]1(COC(=O)c1ccccc1)[C@@H](O)[C@@]1(O)[C@H]4[C@H]([C@H](C)[C@@H]1O)[C@@H](C)CCCCCC[C@H]5O)O2	luminescence	>0.03 µM
Cc1c(CC23CC4CC(CC(C4)C2)C3)nc(SCC(=O)Nc2ccc(C#N)cc2)[nH]c1=O	MTT / absorbance	6.69 µM
CCCCCCCC(=O)O[C@]12C(C3C(OO)C(CO)=C[C@]4(O)C(=O)C(C)=CC4[C@@]3(O)[C@H](C)[C@H]1OC(=O)c1ccccc1)C2(C)C	luminescence	<0.005 µM
Cc1cn([C@@H]2OC[C@H](OCP(=O)(O)O)[C@H]2O)c(=O)[nH]c1=O	tetrazolium	>328 µM
CC(C)=CC1Oc2cc(O)ccc2-c2oc3c4c(cc(O)c3c(=O)c21)OC(C)(C)C=C4	-	21 µg/mL
Cc1cc(C#N)cc(C)c1Oc1nc(Nc2ccc(C#N)cc2)nc(N)c1Br	resazurin	>33 µM
O=c1[nH]cnc2c1ncn2[C@H]1CC[C@@H](CO)O1	trypan blue	>500 µM
CC1CCC(C(=O)N(c2cc(C#CC(C)(C)C)sc2C(=O)O)C2CCC(O)CC2)CC1	luminescence	23.1 µM
Cc1ccnc2c1NC(=O)c1cccnc1N2C1CC1	MTT / absorbance	>15.02 µM
CSc1ccc(OP(=O)(OC[C@@H]2CC[C@H](n3cnc4c(N)ncnc43)O2)OC[C@@H]2CC[C@H](n3cnc4c(N)ncnc43)O2)cc1	trypan blue	>250 µM
CC(C)=CCC/C(C)=C/Cc1cc(-c2cc(=O)c3c(O)cc(O)cc3o2)ccc1O	-	20 µg/mL
Cc1ccc(NC(=O)CSc2nc(CC34CC5CC(CC(C5)C3)C4)c(C)c(=O)[nH]2)c([N+](=O)[O-])c1	MTT / absorbance	23.08 µM
C=C(C)[C@@H]1CC[C@]2(C(=O)OC)CC[C@]3(C)[C@H](CC[C@@H]4[C@@]5(C)C[C@@H](F)[C@H](OC(=O)CC(C)(C)C(=O)O)C(C)(C)[C@@H]5CC[C@]43C)[C@@H]12	ATP / luminescence	>16 µM
O=c1ccn([C@H]2C[C@@H](OCP(=O)(O)O)CO2)c(=O)[nH]1	tetrazolium	>336 µM
COc1ccc2c(c1)O[C@H]1c3ccc(O)cc3OC[C@@H]21	-	53 µg/mL
COc1c(O)ccc(/C=C2N=C(/C=C/c3cc(Br)c(O)c(Br)c3)N(C)C\2=O)c1OC	visual reading	4 µM
CCc1c(CC23CC4CC(CC(C4)C2)C3)nc(SCC(=O)Nc2ccccc2)[nH]c1=O	MTT / absorbance	15.88 µM

Again, the opening 5 rows:

compound	read by	result
CC1=CC[C@H](C(=O)N(c2cc(C#CC(C)(C)C)sc2C(=O)O)C2CCC(O)(CO[C@H]3CCOC3)CC2)CC1	luminescence	42.8 µM
O=C1O[C@H]2[C@@H]3OC(=O)c4cc(O)c(O)c(O)c4-c4c(cc(O)c(O)c4O)C(=O)OC[C@H]2O[C@@H](OC(=O)c2cc(O)c(O)c(O)c2)[C@@H]3OC(=O)c2cc(O)c(O)c3c2[C@@H]2C1=CC(=O)[C@](O)(O3)C2(O)O	XTT	14.2 µM
C/C(Cn1cnc2c(N)ncnc21)=N\OCP(=O)(O)O	absorbance	>1000 µM
Nc1ccn([C@@H]2OC[C@H](OCP(=O)(O)O)[C@H]2O)c(=O)n1	tetrazolium	>308 µM
Cc1cc(C#N)cc(C)c1Oc1nc(Nc2ccc(C#N)cc2)nc(N)c1Br	MTT / absorbance	2.46 µM